Anti-infective test results gathered from many reports (values: NIAID ChemDB through PubChem).

Shared fields: growth or infection tests; species: HIV-1

ECn is the concentration giving n% inhibition of infection, replication or growth. Neighbouring rows are from separate reports. Blank or dashed fields: not listed here.

SMILES,strain or isolate,mutations,cells,endpoint,setting,method,result
Cc1cc(C#Cc2ccc(C(F)(F)F)cc2)cc(C)c1Oc1ccnc(Nc2ccc(C#N)cc2)n1,IIIB,L100I,MT-4,EC50,,MTT,>7.353 µM
Cc1cn([C@H]2C[C@H](N=[N+]=[N-])[C@@H](CO)O2)c(=O)[nH]c1=O,BaL,,MONO/MACRO + Monocytes/macrophages,EC90,,,0.26 µg/mL
Cc1c(O)cccc1C(=O)N[C@@H](CSc1ccccc1)[C@H](O)CN1C[C@H]2CCCC[C@H]2C[C@H]1C(=O)NC(C)(C)C,IIIB,,PBMC,EC50,,p24,0.006 µM
Nc1nc(NC2CC2)c2ncn([C@H]3C=C[C@@H](CO)C3)c2n1,Recombinant,RT-M41L A62V S68N G112S M184V,HeLa,EC50,,luciferase,0.99 µM
Cc1cn([C@H]2C[C@H](N=[N+]=[N-])[C@@H](CO)O2)c(=O)[nH]c1=O,IIIB,K112M K113E V128I,MT-2,EC50,,p24 / ELISA,0.153 µM
CO[P@](=O)(c1cc(C)cc(/C=C/C#N)c1)c1c(C(N)=O)[nH]c2ccc(Cl)c(F)c12,NL4-3,Y181C,MT-4,EC50,,ELISA,0.0039 µM
Cc1cc(C#Cc2cccc(N)c2)cc(C)c1Oc1ccnc(Nc2ccc(C#N)cc2)n1,IIIB,Y188L,MT-4,EC50,,MTT,0.762 µM
Nc1ccn([C@@H]2CS[C@H](CO)O2)c(=O)n1,,4xAZT,Primary T lymphocytes,EC90,,p24 / ELISA,3.4 µM
Cc1ccnc2c1NC(=O)c1cccnc1N2C1CC1,BCF03,RT-A98G Y181C,PBMC,EC50,,,41 µM
Cn1c2ccccc2c2c1cc(C#N)c(=O)n2-c1ccc([N+](=O)[O-])cc1,NNRTI-resistant,RT-Y181C,HeLa,EC50,,luciferase,0.0322 µM
Cc1cn([C@H]2C[C@H](N=[N+]=[N-])[C@@H](CO)O2)c(=O)[nH]c1=O,XM-T69SSS,RT-T69SSS L210W T215Y,MT-4,EC90,,p24,77 µM
Nc1ccn([C@@H]2CS[C@H](CO)O2)c(=O)n1,56252-1 NRTI resistant recombinant,RT-T69K K70G V75I F77L F116Y Q151M M184V,PBMC,EC50,,RT activity,0.007208 µM
CC(C)(C)NC(=O)[C@@H]1C[C@@H]2CCCC[C@@H]2CN1C[C@@H](O)[C@H](Cc1ccccc1)NC(=O)[C@H](CC(N)=O)NC(=O)c1ccc2ccccc2n1,RUD (PR L10I/K20C/M36I/L63T/I64V/A71M),PR-L10I K20C M36I L63T I64V A71M,PBMC,EC50,,,0.013 µM
CCn1nc(Cc2ccc(S(=O)(=O)c3ccccc3)cc2)cc1C1CCN(C[C@H]2CN([C@@H](C(=O)O)C(C)C)C[C@@H]2c2cccc(F)c2)CC1,BaL,,HeLa,EC50,,β-galactosidase,<0.0004 µM
Cc1ccnc2c1NC(=O)c1cccnc1N2C1CC1,IIIB,,U-937,EC50,,RT activity,0.3 µM
CC(C)(C)NC(=O)[C@@H]1C[C@@H]2CCCC[C@@H]2CN1C[C@@H](O)[C@H](Cc1ccccc1)NC(=O)[C@H](CC(N)=O)NC(=O)c1ccc2ccccc2n1,NL4-3,PR-L10R L63P,MT-4,EC95,,p24,0.025 µM
Cc1ccnc2c1NC(=O)c1cccnc1N2C1CC1,E BPTU-resistant (RT Y181C),RT-Y181C,CEM + CEM-SS,EC50,,cytopathic effect / XTT,1.9 µM
Cc1cc(C#Cc2cccc(N)c2)cc(C)c1Oc1ccnc(NC2CCN(Cc3ccc(C(N)=O)cc3)CC2)n1,IIIB,Y188L,MT-4,EC50,,MTT,>0.198 µM
CCc1c(Sc2ccccn2)n(COCc2ccccc2)c(=O)[nH]c1=O,WEJO,,PBMC,EC50,,cytopathic effect / XTT,0.05 µM
CC[C@@H](C)[C@H](C(=O)O)N1C[C@H](CN2CCC(c3cc(Cc4ccc(-c5ccccc5)cc4)nn3CC)CC2)[C@@H](c2cccc(F)c2)C1,BaL,,HeLa,EC50,,β-galactosidase,<0.0012 µM
CC(C)CN(C[C@@H](O)[C@H](Cc1ccccc1)NC(=O)O[C@H]1CCOC1)S(=O)(=O)c1ccc(N)cc1,IIIB,,MT-2,EC50,,p24 / ELISA,0.0473 µM
Cc1cn([C@H]2C[C@H](N=[N+]=[N-])[C@@H](CO)O2)c(=O)[nH]c1=O,WEJO,,PBMC,EC50,clinical isolate,cytopathic effect / XTT,0.02 µM
Cc1occc1C(=S)Nc1ccc(Cl)c(/C=N/OC(C)(C)C)c1,NL4-3 (RT K103N),RT-K103N,CEM + CEM-SS,EC50,,cytopathic effect / XTT,4.8 µM
Cc1cn([C@H]2C[C@H](N=[N+]=[N-])[C@@H](CO)O2)c(=O)[nH]c1=O,8420 CLADE D CLADE D,,PBMC,EC50,,p24,0.016 µM
CC(C)c1nc(CN(C)C(=O)N[C@H](C(=O)N[C@@H](Cc2ccccc2)C[C@H](O)[C@H](Cc2ccccc2)NC(=O)OCc2cncs2)C(C)C)cs1,NL4-3-P22 (PR D30N A71V),PR-D30N A71V,MT-4,EC90,,p24,0.09 µM
Cc1ccnc2c1NC(=O)c1cccnc1N2C1CC1,AZT-resistant (RT D67N K70R T215Y) RTMCY,RT-D67N K70R T215Y,MAGI,EC50,,β-galactosidase,0.039 µM
CCOc1ccc(Cc2cc(C3CCN(C[C@H]4CN([C@@H](C(=O)O)[C@@H](C)CC)C[C@@H]4c4cccc(F)c4)CC3)n(CC)n2)cc1F,BaL,,HeLa,EC90,,β-galactosidase,<0.00014 µM
CC(C)OC(=O)OCOP(=O)(CO[C@H](C)Cn1cnc2c(N)ncnc21)OCOC(=O)OC(C)C,IIIB,,MT-2,EC50,,p24,0.007 µM
O=c1[nH]cnc2c1ncn2[C@H]1CC[C@@H](CO)O1,U455,,U-937,EC50,,syncytia,11.6 µM
O=C1CN=C(c2ccc[nH]2)c2cc(Cl)ccc2N1,IIIB/LAI,,CEM,EC50,,antigen,0.9 µM
O=C(Nc1ccccc1)C1=COCCS1,IIIB,RT-Y181C,CEM + CEM-SS,EC50,,cytopathic effect / XTT,3.9 µM
O=C1N(Cc2ccc(CO)cc2)[C@H](Cc2ccccc2)[C@H](O)[C@@H](O)[C@@H](Cc2ccccc2)N1Cc1ccc(CO)cc1,H clinical isolate,,PBMC,EC50,,p24,0.11 µM
Cc1cc(C#Cc2ccccn2)cc(C)c1Oc1ccnc(Nc2ccc(C#N)cc2)n1,IIIB,F227L + V106A,MT-4,EC50,,MTT,>2.068 µM
O=c1[nH]cnc2c1ncn2[C@H]1CC[C@@H](CO)O1,XM-Q151M,RT-A62V V75I F77C F116Y Q151M,PBMC,EC50,,p24,<106 µM
CC[C@H](C)[C@H](C(=O)O)N1C[C@H](CN2CCC(c3cc(Cc4ccc(-c5ccccc5)cc4)nn3CC)CC2)[C@@H](c2cccc(F)c2)C1,BaL,,HeLa,EC50,,β-galactosidase,<0.0004 µM
CCCc1cc(=O)oc2c3c(c4c(c12)OC(C)(C)C=C4)O[C@H](C)[C@@H](C)[C@@H]3O,TEKI(SI),,PBMC,EC50,,RT activity,0.3 µM
CCn1nc(Cc2ccc(Cl)cc2)cc1C1CCN(C[C@H]2CN([C@@H](C(=O)O)C(C)C)C[C@@H]2c2cccc(F)c2)CC1,BaL,,HeLa,EC50,50% human serum,β-galactosidase,<0.3 µM
O=c1[nH]cnc2c1ncn2[C@H]1CC[C@@H](CO)O1,BCF02,RT-A98G V106I Y181C,PBMC,EC50,,,0.3 µM
Cc1cn([C@H]2C[C@H](N=[N+]=[N-])[C@@H](CO)O2)c(=O)[nH]c1=O,IIIB,RT-P236L,CEM + CEM-SS,EC50,,cytopathic effect / XTT,0.01 µM
CCOc1ccc(Cc2cc(C3CCN(C[C@H]4CN([C@@H](C(=O)O)C(C)C)C[C@@H]4c4cccc(F)c4)CC3)n(CC)n2)cc1,BaL,,HeLa,EC50,50% human serum,β-galactosidase,<0.3 µM
CC(=O)N1CCC(C(=O)N(CCCN2CCC(Cc3ccc(C(N)=O)cc3)CC2)c2ccc(C)c(Cl)c2)CC1,HE R5X4,,PBMC,EC90,,p24,>10 µM
COC(=O)[C@H](C)NP(=O)(OC[C@@H]1C=C[C@H](n2cc(C)c(=O)[nH]c2=O)O1)Oc1ccc(Br)cc1,X267-1 NRTI resistant,RT-M41L L74V L210W T215Y,PBMC,EC50,,p24,0.0002 µM
CCOc1ccc(Cc2cc(C3CCN(C[C@H]4CN([C@@H](C(=O)O)C(C)C)C[C@@H]4c4cccc(F)c4)CC3)n(CC)n2)cc1F,BaL,,HeLa,EC90,50% human serum,β-galactosidase,0.1 µM
CC(C)=CCN1c2cc(Cl)cc3[nH]c(=S)n(c23)C[C@@H]1C,,RT-L74V L100I,MT-4,EC50,,,<0.4 µM
C[C@H](Cn1cnc2c(N)ncnc21)OCP(=O)(O)O,Recombinant,RT-V118I M184V,HeLa,EC50,,luciferase,0.5555 µM
Cc1cn([C@H]2C[C@H](N=[N+]=[N-])[C@@H](CO)O2)c(=O)[nH]c1=O,Clinical isolate,WAN,PBMC,EC50,,ELISA,0.0165 µM
Cc1cn([C@H]2C[C@H](N=[N+]=[N-])[C@@H](CO)O2)c(=O)[nH]c1=O,C140 Clinical isolate ZDV-resistant,RT-M42L M184V T215Y,PBMC,EC50,,p24,0.1 µM
CCn1nc(Cc2ccc(OC)c(C#N)c2)cc1C1CCN(C[C@H]2CN([C@@H](C(=O)O)C(C)(C)C)C[C@@H]2c2cccc(F)c2)CC1,BaL,,HeLa,EC90,50% human serum,β-galactosidase,0.033 µM
Cc1cn([C@H]2C[C@H](N=[N+]=[N-])[C@@H](CO)O2)c(=O)[nH]c1=O,G780-1 NRTI resistant,RT-M41L D67N K70R T215F K219Q,PBMC,EC50,,p24,>3.2 µM
CCCc1cc(=O)oc2c3c(c4c(c12)OC(C)(C)C=C4)O[C@@H](C)[C@H](C)[C@@H]3O,UC040-R (RT-Y181C),RT-Y181C,CEM + CEM-SS,EC50,,cytopathic effect / XTT,<0.08 µM
Cc1ccnc2c1NC(=O)c1cccnc1N2C1CC1,NL4-3,,CEM + CEM-SS,EC50,,cytopathic effect / XTT,0.02 µM
CCCc1cc(=O)oc2c3c(c4c(c12)OC(C)(C)C=C4)O[C@@H](C)[C@H](C)[C@@H]3O,Oxathiin carboxanilide-resistant RT L100I,RT-L100I,CEM + CEM-SS,EC50,,XTT,>270 µM
Cc1cn([C@H]2C[C@H](N=[N+]=[N-])[C@@H](CO)O2)c(=O)[nH]c1=O,,K65R,Primary T lymphocytes,EC90,,p24 / ELISA,0.3 µM
Cc1cn([C@H]2C[C@H](N=[N+]=[N-])[C@@H](CO)O2)c(=O)[nH]c1=O,IIIB,,CEMx174 + CEM,EC50,,XTT,0.03 µM
C/C=C/CSc1cc(NC(=S)c2ccsc2C)ccc1Cl,NL4-3 (RT V106I),RT-V106I,CEM + CEM-SS,EC50,,cytopathic effect / XTT,0.7 µM
O=C1N(Cc2ccc(CO)cc2)[C@H](Cc2ccccc2)[C@H](O)[C@@H](O)[C@@H](Cc2ccccc2)N1Cc1ccc(CO)cc1,NL4-3,PR-L63P V82T,MT-4,EC95,,p24,0.4 µM
Nc1nc(=O)n([C@@H]2CS[C@H](CO)O2)cc1F,,M184V,Primary T lymphocytes,EC50,,p24 / ELISA,10.1 µM
Cc1ccc(S(=O)(=O)N(CC(C)C)C[C@@H](O)[C@H](Cc2ccccc2)NC(=O)O[C@H]2CO[C@H]3OCC[C@H]32)cc1,IIIB,K112M K113E V128I M200I H219P I401T R409K D437N L441P R41K,MT-2,EC50,,p24 / ELISA,0.008 µM
CC[C@H](C)[C@H](C(=O)O)N1C[C@H](CN2CCC(c3cc(Cc4cccc(OC)c4)nn3CC)CC2)[C@@H](c2cccc(F)c2)C1,BaL,,HeLa,EC90,50% human serum,β-galactosidase,0.1 µM